Measured values from several laboratories, pooled; numbers as filed in NIAID ChemDB.

All rows: growth or infection tests; agent: HIV-1; measure: EC50

ECn is the concentration giving n% inhibition of infection, replication or growth.

SMILES	read by	cell line	mutations	strain or isolate	conditions	result
NS(=O)(=O)c1ccc(Oc2ccc(NC(=O)N[C@@H]3[C@@H]4CCc5c(F)ccc(F)c5[C@@H]43)cc2)cc1	ELISA	MT-4 cells	K103N	IIIB		0.0032 µM
Nc1nc(=O)n([C@@H]2CS[C@H](CO)O2)cc1F	recombinant virus assay	MT-2	A62V (mixture)/L74V/V75I (mixture)/K103N/Y115F/F116Y/Q151M	Clinical isolate		3.612 µM
O=C1N(Cc2cccc(O)c2)[C@H](Cc2ccccc2)[C@H](O)[C@@H](O)[C@@H](Cc2ccccc2)N1Cc1cccc(O)c1	hybridisation	MT-2		RF		<0.054 µM
COc1ccc(-n2cnc(C)n2)c2[nH]cc(C(=O)C(=O)N3CCN(C4=Nc5cc(Cl)ccc5Nc5ccccc54)CC3)c12	luciferase / reporter gene / single cycle	MT-2		LAI		<0.5 µM
COC(=O)N[C@H](C(=O)N[C@@H](Cc1ccccc1)[C@@H](O)CN(Cc1ccc(-c2ccccn2)cc1)NC(=O)[C@@H](NC(=O)OC)C(C)(C)C)C(C)(C)C	p24 / luminescence	MT-4	L23I E34Q K43I M46I I50L G51A L63P A71V V82A T91A	NL4-3		>1 µM
Nc1cccc(CN2C(=O)N(Cc3cccc(N)c3)[C@H](Cc3ccccc3)[C@H](O)[C@@H](O)[C@H]2Cc2ccccc2)c1	virus yield	MT-2		THAI (PR-WT)		<0.13 µM
C#Cc1ccc(Nc2nccc(Oc3c(C)cc(-c4cn(Cc5ccc(O)cc5)nn4)cc3C)n2)cc1	MTT	MT-4	E138K	IIIB		0.091 µM
Cc1ccnc2c1NC(=O)c1cccnc1N2C1CC1	antigen	C8166	E138K	NL4-3		0.176 µM
Cc1ccnc2c1NC(=O)c1cccnc1N2C1CC1	β-galactosidase	MAGI (CCR5) + MAGI	RT-K103N	HXB2		1.2 µM
CCC[C@@]1(CCc2ccccc2)CC(O)=C([C@H](CC)c2cccc(NS(=O)(=O)c3ccc(C(F)(F)F)cn3)c2)C(=O)O1	p24 / luminescence	MT-4	L23I E34Q K43I M46I I50L G51A L63P A71V V82A T91A	NL4-3		>1 µM
Cc1occc1C(=S)Nc1ccc(Cl)c(/C=N/OC(C)(C)C)c1	cytopathic effect / XTT	MAC		BaL		0.2 µM
O=C(C(=O)N1CCN(C2=Nc3cc(Cl)ccc3Nc3ccccc32)CC1)c1c[nH]c2ccccc12	luciferase / reporter gene / single cycle	MT-2		LAI		>0.5 µM
C=CCN1C(=O)N(CC=C)[C@H](Cc2ccccc2)[C@H](O)[C@@H](O)[C@H]1Cc1ccccc1	hybridisation	MT-2		RF		<4.7 µM
CNc1ccc(C)cc1S(=O)(=O)c1ccccc1[N+](=O)[O-]	XTT	CEM + CEM-SS		IIIB		0.4 µM
C#Cc1ccc(Nc2nccc(Oc3c(C)cc(-c4cn(Cc5cccc(C(=O)OC)c5)nn4)cc3C)n2)cc1	MTT	MT-4	L100I	IIIB		>4.78 µM
CC(C)=CCN1Cc2cc(Cl)cc3[nH]c(=S)n(c23)C[C@@H]1C		MT-4				<0.8 µM
COc1ccccc1CN1C(=O)N(Cc2ccccc2OC)[C@H](Cc2ccccc2)[C@H](O)[C@@H](O)[C@H]1Cc1ccccc1	hybridisation	MT-2		RF		<22.9 µM
Cc1cc(Br)cc(S(=O)(=O)c2cccc(N)c2C#N)c1	β-galactosidase	HeLa + HELA CD4+	RT-L100I K103N			3 µM
COC(=O)[C@H](CCCCN)NP(=O)(OC[C@H]1C=C[C@@H](n2cnc3c(N)ncnc32)C1)Oc1ccccc1	cytopathic effect / MTS	MT-4		IIIB		25 µM
C#Cc1ccc(Nc2nccc(Oc3c(C)cc(-c4cn(Cc5ccccc5[N+](=O)[O-])nn4)cc3C)n2)cc1	MTT	MT-4	K103N	IIIB		0.31 µM
COc1ccc(S(=O)(=O)N(CC(C)C)C[C@@H](O)[C@H](Cc2ccccc2)NC(=O)O[C@H]2CO[C@H]3O[C@@H]4OCC[C@@H]4[C@H]32)cc1	p24 / luminescence	PBMC		ERS104pre		0.0006 µM
C#Cc1ccc(Nc2nccc(Oc3c(C)cc(-c4cn(Cc5ccc(S(N)(=O)=O)cc5)nn4)cc3C)n2)cc1	MTT	MT-4		RES056		>86.44 µM
CNc1ccc(Cl)cc1S(=O)(=O)c1ccccc1[N+](=O)[O-]	XTT	MT-2		IIIB		1.1 µM
COC(=O)[C@@H]1CCCN1P(=O)(OC[C@H]1C=C[C@@H](n2cnc3c(N)ncnc32)C1)Oc1ccccc1	cytopathic effect / MTS	MT-4		IIIB		10 µM
O=C(C(=O)N1CCN(C2=Nc3ccccc3Oc3ccc(Cl)cc32)CC1)c1c[nH]c2ccccc12	luciferase / reporter gene / single cycle	MT-2		LAI		0.7056 µM
Cc1cn([C@H]2C[C@H](N=[N+]=[N-])[C@@H](CO)O2)c(=O)[nH]c1=O	plaque count	HT4 + HT4-6C		A012B		0.005 µM
CC(=O)O[C@@]12C[C@@H](C)[C@@]3(O)[C@@H](C=C(CO)C[C@]4(O)C(=O)C(C)=C[C@@H]34)[C@@H]1C2(C)C	p24 / ELISA	C8166		74V		2.457 µM
O=C1N(Cc2ccncc2)[C@H](Cc2ccccc2)[C@H](O)[C@@H](O)[C@@H](Cc2ccccc2)N1Cc1ccc2ccccc2c1	hybridisation	MT-2		RF		<2.7 µM
Cc1c(O)c(=O)ccn1C	XTT / p24	Macrophage + Monocytes/macrophages		BaL		>100 µM
C#Cc1ccc(Nc2nccc(Oc3c(C)cc(-c4cn(-c5cccc(C(=O)OC)c5)nn4)cc3C)n2)cc1	MTT	MT-4		IIIB		0.02 µM
Cc1cc(C#N)cc(C)c1Oc1nc(Nc2ccc(C#N)cc2)nc(N)c1Br	absorbance	PBMC		96USNG31		0.0002 µM
Cc1cc(Cl)cc(S(=O)(=O)c2cccc(N)c2C#N)c1	β-galactosidase	HeLa + HELA CD4+	RT-K103N V108I			33 µM
CO[P@](=O)(c1cc(C)cc(/C=C/C#N)c1)c1c(C(N)=O)[nH]c2ccc(Cl)cc12			K103N	BH10		<0.0016 µM
CC[C@H](C)[C@H](NC(=O)c1ccccc1SSc1ccccc1C(=O)N[C@H](C(=O)O)[C@@H](C)CC)C(=O)O	p24 / RT activity	PBMC		LAV-Bru		7 µM
Cc1cn([C@H]2C=C[C@@H](CO)O2)c(=O)[nH]c1=O	recombinant virus assay	MT-2	T69ins/K70R/M184V/K219Q	Clinical isolate		3.408 µM
CC(C)OC(=O)[C@H](C)NP(=O)(OC[C@H]1C=C[C@@H](n2cnc3c(N)ncnc32)C1)Oc1ccccc1	cytopathic effect / MTS	MT-4		IIIB		0.425 µM
Cc1ccnc2c1NC(=O)c1cccnc1N2C1CC1	plaque count	HT4 + HT4 LacZ-1	RT-M41L Y181C M184V T215Y	RTMN(181 184) (RT M41L Y181C M184V T215Y)		7.9 µM
C=C1C[C@@]23CC[C@H]4[C@@](C)(CCC(=O)[C@]4(C)CO)[C@@H]2C[C@@H]1[C@@H](O)C3=O	luciferase / luminescence	MT-4		NL4-3		>44 µM
c1cc(CN2CCCNCCNCCCNCC2)ccc1CN1CCCNCCNCCCNCC1	antigen	PBMC		IIIB X4		0.002 µg/mL
C=C1C[C@@]23CC[C@@H]4C(C)(C)[C@H](O)CC[C@@]4(C)[C@@H]2C[C@@H]1[C@@H](O)C3=O	luciferase / luminescence	MT-4		NL4-3		>44 µM
C#C[C@]1(CO)O[C@@H](n2cnc3c(N)nc(F)nc32)C[C@@H]1O	fluorescence	MT4-GFP	A114S	Clinical isolate		0.0021 µM
Cc1cn([C@H]2C[C@H](F)[C@@H](CO)O2)c(=O)[nH]c1=O	ELISA	PBMC		720		0.004 µM
CCc1c(C(=O)c2cc(C)cc(C)c2)n(CC2CC=CC2)c(=O)[nH]c1=O	cytopathic effect / XTT	MT-2		IIIB		0.001 µM
Cc1cn([C@H]2C[C@H](N=[N+]=[N-])[C@@H](CO)O2)c(=O)[nH]c1=O	MTT	MT-4	K103N	IIIB		0.019 µM
COC(=O)[C@H](Cc1ccc(OC(C)(C)C)cc1)NP(=O)(OC[C@H]1C=C[C@@H](n2cnc3c(N)ncnc32)C1)Oc1ccccc1	cytopathic effect / MTS	MT-4		IIIB		<1 µM
O=c1[nH]cnc2c1ncn2[C@H]1CC[C@@H](CO)O1	thymidine uptake	ATH8				<5 µM
Nc1ccn([C@H]2CC[C@@H](CO)O2)c(=O)n1	plaque count	HT4 + HT4 LacZ-1	RT-M41L Y181C M184V T215Y	RTMN(181 184) (RT M41L Y181C M184V T215Y)		0.94 µM
COc1cc(C(F)(F)F)cc(S(=O)(=O)c2cccc(N)c2C#N)c1	β-galactosidase	HeLa + HELA CD4+	RT-K103N P225H			5.5 µM
Cc1cccc(C)c1OCC(=O)N[C@@H](Cc1ccccc1)[C@@H](O)C[C@H](Cc1ccccc1)NC(=O)[C@H](C(C)C)N1CCCNC1=O	p24 / luminescence	PBMC	L10I K14R L33I M36I M46I F53I K55R I62V L63P A71V G73S V82A L90M I93L	Clinical isolate	clinical isolate, multidrug-resistant	>1 µM
CC1(C)OC[C@@]2(C[C@]34CC[C@H]2C[C@H]3[C@]2(C)CCC(=O)C(C)(C)[C@H]2CC4)O1	luciferase / luminescence	MT-4		NL4-3		24 µM
C/C=C/CSc1cc(NC(=S)c2ccsc2C)ccc1Cl	cytopathic effect / XTT	CEM + CEM-SS	RT-Y181C K101E	UC10-resistant (RT Y181C K101E)		>2 µM
O=C1N(Cc2ccccc2F)[C@H](Cc2ccccc2)[C@H](O)[C@@H](O)[C@@H](Cc2ccccc2)N1Cc1ccccc1F	hybridisation	MT-2		RF		<5.5 µM
C#C[C@@]1(CO)C=C[C@H](n2cc(C)c(=O)[nH]c2=O)O1	luciferase / reporter gene	TZM-bl		NL4-3		0.01656 µM
CCC(=O)c1ccc(F)c([C@@H]2C[C@@H]2NC(=O)Nc2ccc(C#N)cn2)c1O	absorbance	PBMC		7324-1		0.0001 µM
Cc1cc(O)cc(S(=O)(=O)c2cccc(N)c2C#N)c1	β-galactosidase	HeLa + HELA CD4+	RT-K103N Y181C			>50 µM
Cc1ccnc2c1NC(=O)c1cccnc1N2C1CC1	cytopathic effect / XTT	CEM + CEM-SS	RT-V108I	NL4-3 (RT V108I)		0.06 µM
C#Cc1ccc(Nc2nccc(Oc3c(C)cc(-c4cn(CCc5ccccc5)nn4)cc3C)n2)cc1	MTT	MT-4	Y181C	IIIB		>5.66 µM
Cc1cn([C@H]2C=C[C@@H](CO)O2)c(=O)[nH]c1=O	β-galactosidase	MAGI (CCR5) + MAGI		HXB2 WT		7.6 µM
CC(C)CN(C[C@@H](O)[C@H](Cc1ccccc1)NC(=O)O[C@H]1CCOC1)S(=O)(=O)c1ccc(N)cc1	p24 / luminescence	PBMC	L10I I15V K20R L24I M36I M46L I54V I62V L63P K70Q V82A L89M	Clinical isolate	clinical isolate, multidrug-resistant	0.41 µM

For reference, 7 entries again:

SMILES,read by,cell line,mutations,strain or isolate,conditions,result
CC1(C)OC[C@@]2(C[C@]34CC[C@H]2C[C@H]3[C@]2(C)CCC(=O)C(C)(C)[C@H]2CC4)O1,luciferase / luminescence,MT-4,,NL4-3,,24 µM
CC(C)CN(C[C@@H](O)[C@H](Cc1ccccc1)NC(=O)O[C@H]1CCOC1)S(=O)(=O)c1ccc(N)cc1,p24 / luminescence,PBMC,L10I I15V K20R L24I M36I M46L I54V I62V L63P K70Q V82A L89M,Clinical isolate,"clinical isolate, multidrug-resistant",0.41 µM
Cc1cc(Br)cc(S(=O)(=O)c2cccc(N)c2C#N)c1,β-galactosidase,HeLa + HELA CD4+,RT-L100I K103N,,,3 µM
COc1ccc(S(=O)(=O)N(CC(C)C)C[C@@H](O)[C@H](Cc2ccccc2)NC(=O)O[C@H]2CO[C@H]3O[C@@H]4OCC[C@@H]4[C@H]32)cc1,p24 / luminescence,PBMC,,ERS104pre,,0.0006 µM
Cc1cccc(C)c1OCC(=O)N[C@@H](Cc1ccccc1)[C@@H](O)C[C@H](Cc1ccccc1)NC(=O)[C@H](C(C)C)N1CCCNC1=O,p24 / luminescence,PBMC,L10I K14R L33I M36I M46I F53I K55R I62V L63P A71V G73S V82A L90M I93L,Clinical isolate,"clinical isolate, multidrug-resistant",>1 µM
Cc1cn([C@H]2C=C[C@@H](CO)O2)c(=O)[nH]c1=O,recombinant virus assay,MT-2,T69ins/K70R/M184V/K219Q,Clinical isolate,,3.408 µM
O=C1N(Cc2ccccc2F)[C@H](Cc2ccccc2)[C@H](O)[C@@H](O)[C@@H](Cc2ccccc2)N1Cc1ccccc1F,hybridisation,MT-2,,RF,,<5.5 µM

Neighbouring rows are from separate reports. Blank or dashed fields: not listed here.